# According to patent US7087375B1, “Method for determining the mechanism of HIV RT inhibitors” (priority 2000, dated 2006):
# Columns and labels:
# Format in all cases: biochemical
# HIV-1 RT mutant V75T = target: T1, HIV-1 RT mutant V75T (Human immunodeficiency virus type 1 group M subtype B, UniProt P04585, V662T)
# T1 construct: The final RT products, in a heterodimeric form (p66/p51); made in house
# HIV-1 RT mutant Q151M = target: T2, HIV-1 RT mutant Q151M (Human immunodeficiency virus type 1 group M subtype B, UniProt P04585, Q738M)
# T2 construct: The final RT products, in a heterodimeric form (p66/p51); made in house
# [1] = target: T3, HIV-1 RT mutant 41/67/70/215 (Human immunodeficiency virus type 1 group M subtype B, UniProt P04585, D654N/K657R/M628L/T802Y); conditions: 41/67/70/215 RT
# T3 construct: The final RT products, in a heterodimeric form (p66/p51); made in house; host or cells: E. coli XL1-Blue (vector pKK233-2)
# HIV-1 RT mutant 69S-AG = target: T4, HIV-1 RT mutant 69S-AG (Human immunodeficiency virus type 1 group M subtype B, UniProt P04585, INS655SA/T656G/T656S); conditions: 69S-AG RT
# T4 construct: The final RT products, in a heterodimeric form (p66/p51); made in house; host or cells: E. coli XL1-Blue (vector pKK233-2)
# [2] = target: T5, HIV-1 RT mutant 41/67/70/184/215 (Human immunodeficiency virus type 1 group M subtype B, UniProt P04585, D654N/K657R/M628L/M771V/T802Y); conditions: 41/67/70/184/215 RT
# T5 construct: The final RT products, in a heterodimeric form (p66/p51); made in house; host or cells: E. coli XL1-Blue (vector pKK233-2)
# HIV-1 RT mutant 69S-SG = target: T6, HIV-1 RT mutant 69S-SG (Human immunodeficiency virus type 1 group M subtype B, UniProt P04585, INS655SS/T656G/T656S); conditions: 69S-SG RT
# T6 construct: The final RT products, in a heterodimeric form (p66/p51); made in house; host or cells: E. coli XL1-Blue (vector pKK233-2)
# [3] = target: T7, HIV-1 RT mutant 41/67/70/184/210/211/214/215 (Human immunodeficiency virus type 1 group M subtype B, UniProt P04585, D654N/K657R/L797W/L801F/M628L/M771V/R798K/T802Y); conditions: 41/67/70/184/210/211/214/215 RT
# T7 construct: The final RT products, in a heterodimeric form (p66/p51); made in house; host or cells: E. coli XL1-Blue (vector pKK233-2)
# [4] = no extra additions (without ATP)
substance,measurement,setting,value
d4T-TP,Fold resistance with ATP (RT assay),HIV-1 RT mutant V75T; ATP 3.2 mM,4.0 +/− 0.6 fold
same,pKi,HIV-1 RT mutant V75T; ATP 3.2 mM,8.18
same,Ki/Km,HIV-1 RT mutant V75T; ATP 3.2 mM,0.04
same,Fold resistance (RT assay),HIV-1 RT mutant V75T; without ATP,4.1 +/− 0.6 fold
same,pKi,HIV-1 RT mutant V75T; without ATP,8.59
same,Ki/Km,HIV-1 RT mutant V75T; without ATP,0.033
same,Fold resistance with ATP (RT assay),HIV-1 RT mutant Q151M; ATP 3.2 mM,4.0 +/− 0.1 fold
same,pKi,HIV-1 RT mutant Q151M; ATP 3.2 mM,8.15
same,Ki/Km,HIV-1 RT mutant Q151M; ATP 3.2 mM,0.04
same,Fold resistance (RT assay),HIV-1 RT mutant Q151M; without ATP,3.3 +/− 0.9 fold
same,pKi,HIV-1 RT mutant Q151M; without ATP,8.52
same,Ki/Km,HIV-1 RT mutant Q151M; without ATP,0.026
same,Fold resistance in RT-assay relative to HXB2,[1]; ATP 3.2 mM,2.2 fold
same,pKi,[1]; ATP 3.2 mM,8.55
same,Ki/Km,[1]; ATP 3.2 mM,0.022
same,Fold resistance in RT-assay relative to HXB2,[1]; [4],0.5 fold
same,Ki/Km,[1]; [4],0.004
same,Fold resistance in RT-assay relative to HXB2,HIV-1 RT mutant 69S-AG; ATP 3.2 mM,4.9 +/− 0.2 fold
same,pKi,HIV-1 RT mutant 69S-AG; ATP 3.2 mM,8.21
same,Ki/Km,HIV-1 RT mutant 69S-AG; ATP 3.2 mM,0.049
same,Fold resistance in RT-assay relative to HXB2,HIV-1 RT mutant 69S-AG; without ATP,2.0 +/− 0.4 fold
same,pKi,HIV-1 RT mutant 69S-AG; without ATP,8.72
same,Ki/Km,HIV-1 RT mutant 69S-AG; without ATP,0.016
same,Fold resistance in RT-assay relative to HXB2,[2]; ATP 3.2 mM,3.4 fold
same,pKi,[2]; ATP 3.2 mM,8.28
same,Ki/Km,[2]; ATP 3.2 mM,0.034
same,Fold resistance in RT-assay relative to HXB2,[2]; without ATP,1.0 fold
same,pKi,[2]; without ATP,9.22
same,Ki/Km,[2]; without ATP,0.008
same,Fold resistance in RT-assay relative to HXB2,HIV-1 RT mutant 69S-SG; ATP 3.2 mM,3.0 +/− 0.6 fold
same,pKi,HIV-1 RT mutant 69S-SG; ATP 3.2 mM,8.17
same,Ki/Km,HIV-1 RT mutant 69S-SG; ATP 3.2 mM,0.03
same,Fold resistance in RT-assay relative to HXB2,HIV-1 RT mutant 69S-SG; without ATP,1.8 +/− 0.2 fold
same,pKi,HIV-1 RT mutant 69S-SG; without ATP,8.43
same,Ki/Km,HIV-1 RT mutant 69S-SG; without ATP,0.015
same,Fold resistance in RT-assay relative to HXB2,[3]; ATP 3.2 mM,2.8 fold
same,pKi,[3]; ATP 3.2 mM,8.16
same,Ki/Km,[3]; ATP 3.2 mM,0.028
same,Fold resistance in RT-assay relative to HXB2,[3]; without ATP,0.9 fold
same,pKi,[3]; without ATP,8.82
same,Ki/Km,[3]; without ATP,0.007

# pKi: −log10 of the molar value. Like-named read-outs stand apart in the source and are kept apart here.
